This is a selection; strong and weak results do not stand in their true shares. Activity calls are given as the source filed them. Rule as the data show it: active = inhibition above about 50%; inactive = the rest.
Each compound was assayed on Plasmodium falciparum apicoplast DNA polymerase (apPOL) (assay: Pf-apPOL inhibitors, biochemical, fluorescence (AID 1794808)). Conditions: Recombinant Pf-apPOL, molecular beacon fluorescence, 1.5 h; at 10 µM; stronger effect = higher value.

Compound	inhibition
Cc1ccccc1NC1CC(C)(C)NC(C)(C)C1	inactive: 0.4%
N#CC1(Nc2ccccc2)CCN(Cc2ccccc2)CC1	inactive: -6.7%
COc1ccc(NC2CCN(CCc3ccccc3)CC2)c(OC)c1	inactive: -0.1%
CCCN1CCC(Nc2ccc(F)cc2)CC1	inactive: -0.1%
CCN1CCC(Nc2ccc(Cl)cc2)CC1	inactive: -1.9%
COc1ccc(NC2CCN(C(=O)OC(C)(C)C)CC2)cc1	inactive: 0.6%
O=S1(=O)CC(Cl)C(SC2CS(=O)(=O)CC2Cl)C1 (stereo unspecified)	inactive: 3.9%
NC(=O)C1(Nc2ccccc2)CCN(Cc2ccccc2)CC1	inactive: -7.6%
CN1CCC(Nc2ccc(F)cc2)CC1	inactive: -2.8%
CCOC(=O)N1CCC(Nc2ccc(C)cc2)CC1	inactive: 5.7%
CC(=O)N1CCN(C/C=C/c2ccccc2[N+](=O)[O-])CC1	inactive: -5.3%
CCCN1CCC(Nc2ccccc2F)CC1	inactive: 6.7%
CCCN1CCC(Nc2cc(OC)cc(OC)c2)CC1	inactive: -7.5%
Clc1ccc(NC2CCN(Cc3ccccc3)CC2)cc1	inactive: -2.5%
Fc1cccc(NC2CCN(CCc3ccccc3)CC2)c1	inactive: 1.4%
Fc1ccccc1NC1CCN(Cc2ccccc2)CC1	inactive: -10.2%
CC(C)N1CCC(N(C(=O)Cc2ccccc2)c2ccc(Cl)cc2)CC1	inactive: 15.3%
CCN1CCC(Nc2ccc(F)cc2)CC1	inactive: -0.6%
CCN1CCC(Nc2cccc(F)c2)CC1	inactive: 2.5%
CN1CCC(Nc2ccc(F)c(Cl)c2)CC1	inactive: 2.2%
CN1CCC(Nc2ccc(Cl)cc2)CC1	inactive: -2.9%
